Results of unrelated studies side by side (data: NIAID ChemDB).

All rows: host cell toxicity; cell line: MOLT-4; read-out: CC50

Two numbers with a dash give a range or band.

compound	read by	result
CC(C)Nc1nc2c(Br)c(Cl)c(Cl)cc2n1[C@@H]1OC[C@@H](O)[C@H]1O		13 µM
Cn1c2ccccc2c(=O)c2c(O)cccc21		14.8 µg/mL
O=S(=O)(c1cccc2cnccc12)N1CCNCC1		8.4 µg/mL
CC(C)Nc1nc2cc(Cl)c(Cl)cc2n1[C@H]1O[C@@H](CO)[C@H](O)[C@@H]1O		35–72 µM
Nc1nc(NC2CC2)c2ncn([C@H]3C[C@H](O)[C@@H](CO)S3)c2n1		<100 µM
O=C(O)c1cn(-c2ccc(Cn3cncn3)cc2)c2c(OC(F)F)c(N3CC=C(c4ccccc4)CC3)c(F)cc2c1=O		0.22 µM
CCCCC(=O)OC1CC(OC(C)C(C)C(O)C(C)C(O)C(C)C2OC(=O)/C=C/CC(O)CC(O)CC(O)CCC(C)C(O)C[C@@]3(O)O[C@H](CC(O)CC(OC(=O)CC(=O)O)CCCC(O)C4OC4C2C)C[C@H](O)[C@H]3O)OC(C)C1O		>100 µg/mL
C=CCOc1c(O)ccc2c1OC[C@]1(O)Cc3cc4c(cc3C21)OC(C)(C)O4	MTT	51.4 µM
CC(C)Nc1nc2cc(Cl)c(Cl)cc2n1[C@@H]1OC[C@@H](O)[C@H]1O		84 µM
Cn1cc(C(=O)O)c(=O)c2cc(F)c(N3CC=C(c4ccccc4)CC3)c(C(F)(F)F)c21		>1 µM
COC(=O)[C@@H](NC(=O)[C@@H](NC(=O)CNC[C@H](O)[C@H](Cc1ccccc1)NC(=O)[C@H](C)NC(=O)OCc1ccccc1)C(C)C)C(C)C		>100 µM
Nc1nc(N2CCCCC2)c2ncn([C@H]3C[C@H](O)[C@@H](CO)S3)c2n1		>100 µM
CCn1cc(C(=O)O)c(=O)c2cc(F)c(N3CCN(c4ccccc4OC)CC3)c(OC(F)F)c21		8.1 µM
COP(=O)(c1cc(C)cc(CCC#N)c1)c1c(C(N)=O)[nH]c2ccc(Cl)cc12	MTS	14.8 µM
OC[C@H]1O[C@@H](n2c(Br)nc3cc(Cl)c(Cl)cc32)[C@H](O)[C@@H]1O		35–72 µM
COC(=O)[C@@H](NC(=O)[C@@H](NC(=O)[C@@H](C)NC[C@H](O)[C@H](Cc1ccccc1)NC(=O)[C@H](C)NC(=O)OCc1ccccc1)C(C)C)C(C)C		>100 µM

2 of the rows above, restated:

compound,read by,result
CCn1cc(C(=O)O)c(=O)c2cc(F)c(N3CCN(c4ccccc4OC)CC3)c(OC(F)F)c21,,8.1 µM
O=S(=O)(c1cccc2cnccc12)N1CCNCC1,,8.4 µg/mL

An empty or dashed field is not shown. CCn: concentration that lowers growth or viability of the cells by n%. Conditions beyond the fields shown may differ between rows.